Data on 10 molecules can be found in publication PMC7942396, “Drug Repurposing Screen for Compounds Inhibiting the Cytopathic Effect of SARS-CoV-2” (Frontiers in Pharmacology, 2021).

Counter-ions that a name gives are not always drawn.

One series is described as follows: in vitro. As to conditions: African green monkey.
The test system of another series is Vero E6 cells. Particulars: read-out: Cytotox CC50; cytotoxicity counter-assay, Vero E6 cells without virus.

In the series “in vitro”, `CC(/C=C/[C@@H]1C[C@]1(C)c1ccc2c(c1)C(C)(C)CCC2(C)C)=C\C(=O)O` [AGN-194204] yielded a CC50 at 72 h of 14.1 µM.

In “in vitro”, `Clc1ccc2c(c1)C(N1CCNCC1)=Nc1ccccc1O2` [Amoxapine] came in with a CC50 of 14.1 µM.

Regarding `CCc1cc(-c2n[nH]c(C)c2-c2ccc3c(c2)OCCO3)c(O)cc1O` [CCT-018159], the CC50 in the series on Vero E6 cells is 14.1 µM.

Regarding `Cn1ncc2cc(-c3cnc(N)c(Cl)c3N3CCC4(CCNC4=O)CC3)ccc21` [CCT-251921], in the series on Vero E6 cells, the CC50 came to 14.1 µM.

On to `COc1ccc2c(c1)[C@]1(C[C@H]1c1ccc3c(/C=C/c4ccc(CN5C[C@@H](C)O[C@@H](C)C5)cc4)n[nH]c3c1)C(=O)N2` [CFI-400945], for which the CC50 at 72 h in “in vitro” worked out at 14.1 µM.

The molecule `CN(C)CCCN1c2ccccc2CCc2ccc(Cl)cc21` [Clomipramine hydrochloride] came in with a CC50 in the series “in vitro” of 14.1 µM.

Turning to `CN(C)CCC=C1c2ccccc2C=Cc2ccccc21` [Cyclobenzaprine hydrochloride], in the series “in vitro”, the CC50 came out at 14.1 µM.

In the series “in vitro”, `O=C1Nc2ccc(Cl)cc2[C@@](C#CC2CC2)(C(F)(F)F)O1` [Efavirenz] showed a CC50 of 14.1 µM.

Turning to `Oc1ccc(-c2nc(-c3ccncc3)c(-c3ccc(F)cc3)[nH]2)cc1` [SB-202190], the CC50 at 72 h in “in vitro” stood at 14.1 µM.

Take `O=C1NC(=O)/C(=C/c2cccc(C(F)(F)F)c2)S1` [SMI-4a]: the CC50 in the series with Vero E6 cells is 14.1 µM.
